System: Staphylococcus aureus
Details: isolate d20A1

**Q.** GENTAMICIN was tested. Which MIC did it give?
**A.** 0.5 µg/mL
